A mixed list of measured activities; the numbers were collected in NIAID ChemDB.

All rows: tests in culture; organism: Mycobacterium avium; measure: MIC

Neighbouring rows are from separate reports.

structure | conditions | read by | strain | value
CC[C@H]1OC(=O)[C@H](C)[C@@H](O[C@H]2C[C@@](C)(OC)[C@@H](O)[C@H](C)O2)[C@H](C)[C@@H](O[C@@H]2O[C@H](C)C[C@H](N(C)C)[C@H]2O)[C@](C)(OC)C[C@@H](C)C(=O)[C@H](C)[C@@H](O)[C@]1(C)O | pH 7.4 | broth dilution / radiometric | 1017 | 1 µg/mL
CC[C@H]1OC(=O)[C@H](C)[C@@H](O[C@H]2C[C@@](C)(OC)[C@@H](O)[C@H](C)O2)[C@H](C)[C@@H](O[C@@H]2O[C@H](C)C[C@H](N(C)C)[C@H]2O)[C@](C)(OC)C[C@@H](C)C(=O)[C@H](C)[C@@H](O)[C@]1(C)O |  |  | 3011-C clarithromycin-resistant | 128 µg/mL
CO[C@H]1/C=C/O[C@@]2(C)Oc3c(C)c(O)c4c(O)c(c(/C=N/N5CCN(C)CC5)c(O)c4c3C2=O)NC(=O)/C(C)=C\C=C\[C@H](C)[C@H](O)[C@@H](C)[C@@H](O)[C@@H](C)[C@H](OC(C)=O)[C@@H]1C |  |  | Isolate 90-1625 | 15 µg/mL
O=C(Nc1ccc(Cl)cc1)c1cc(Cl)ccc1OP(=O)(Oc1ccccc1)c1ccccc1 | 14 d |  | MY330/88 | 16 µM
CC1CN(c2c(F)c(N)c3c(=O)c(C(=O)O)cn(C4CC4)c3c2F)CCN1C |  |  | RG0 | 0.5 µg/mL
CC[C@H]1OC(=O)[C@H](C)[C@@H](O[C@H]2C[C@@](C)(OC)[C@@H](O)[C@H](C)O2)[C@H](C)[C@@H](O[C@@H]2O[C@H](C)C[C@H](N(C)C)[C@H]2O)[C@](C)(O)C[C@@H](C)CN(C)[C@H](C)[C@@H](O)[C@]1(C)O |  |  | 3090-C clarithromycin-resistant | >512 µg/mL
O=C(Nc1ccccc1)c1ccccc1OP(=O)(OCc1ccccc1)OCc1ccccc1 | 14 d |  | MY330/88 | 500 µM
O=C(O)c1cn(C2CC2)c2c(F)c(N3CCN4CCC3C4)c(F)cc2c1=O |  |  | LR114F | 1 µg/mL
O=C(/C=C/c1ccc(Br)cc1)c1cnccn1 |  | absorbance | Chester | >100 µg/mL
O=C(Nc1ccc(C(F)(F)F)cc1)c1cc(Cl)ccc1OP(=O)(Oc1ccccc1)Oc1ccccc1 | 7 d |  | MY330/88 | 8 µM
CN[C@@H]1[C@H](O[C@H]2[C@H](O[C@H]3[C@H](O)[C@@H](O)[C@H](N=C(N)N)[C@@H](O)[C@@H]3N=C(N)N)O[C@@H](C)[C@]2(O)C=O)O[C@@H](CO)[C@H](O)[C@H]1O |  |  | 453 | >8 µg/mL
O=C1c2cc(Cl)ccc2OP(=O)(c2ccccc2)N1c1ccc(Cl)cc1 | 14 d |  | MY330/88 | 16 µM
CCc1cc(C(N)=S)ccn1 |  |  | 3011-C clarithromycin-resistant | >8 µg/mL
CC[C@@H](CO)NCCN[C@@H](CC)CO |  |  | SMT | 16 µg/mL

Blank or dashed fields: not listed here.